Positions count from the first letter of the chain named.
B1: mAb14235 (antibody, V domains shown)
VH: QITLKESGPTLVKPTQTLTLTCTFSGFSLNTGGVGVGWIRQPPGNALEWLALIYWDDDKRYNPSLKTRLTISKDTSKNQVVLTMTNMDPVDTATYFCAHLTIAVIVDFWGQGTLVTVSS
VL: QSALTQPASVSGSPGQSITISCTATSSDVGTYNYVSWFQHHPGKAPKLMIYEVTNRPSGVSNRFSGSKSGNTASLTISGLQAEDEADYYCSSYTTTSIVFGGGTKLTVLG
B2: mAb14284 (antibody, V domains shown)
VH: QITLKESGPTLVKPTQTLTLTCTFSGFSFSTSGVGVGWIRQPPGKTLEWLALIYWDDDKRYSPSLKSRLTITKDTSKNQVVLTMTNMDPVDTATYFCAHHGIPTIFGYWGQGALVTVSS
VL: B1 VL with A24G, V29L, T31V, Y32F, F38Y, H40Q, T96S, I98T
B3: mAb14255 (antibody, V domains shown)
VH: QVQLQESGPGLVKPSETLSLTCTVSGGSISGYYWSWIRQPPGKGLDWIGYIYYRGNTNYNPSLKSRVTISVDTSNNQFSLKLSSVTAADTAVYYCARYGEGYGDASGYHFDYWGQGTLVTVSS
VL: QSALTQPASVSGSPGQSITISCTGTSSDVGSYNLVSWYQQHPGKAPKLMIYEDSKRPSGVANPFSGSKSGNTASLTISGLQAEDEADYYCSSYAGSSTWVFGGGTKLTVLG
B4: mAb14283 (antibody, V domains shown)
VH: QVQLQESGPGLVKPSGTLSLTCDVSGGSISSNNWWSWVRQRPGKGLQWIGEIYHNENTNYNPSLKSRVIMSIDKSKNQFSLKLTSVTAADTAVYYCARGDVLDWFDPWGQGTLVTVSS
VL: QSALTQPASVSGSPGQSTTISCTGTSSDVGGYNYVSWYQQYPGKAPKLMIYDVTNRPSGVSHRFSGSKSGNTASLTISGLQAEDEADYYCSSYTSSSTVIFGGGTKLTVLG
B5: mAb14313 (antibody, V domains shown)
VH: EVQLVESGGGLVQPGRSLRLSCVASGFTFDDSAMHWVRQPPGKGLEWVSGISWNSGIIGYAESVKGRFIISRDNAKNSLFLHMRGLRPEDTAVYYCARDRLELSYYYYGMDVWGQGTTVTVSS
VL: QSVLTQPPSASGTPGQRVTISCSGSSSNIGSNTVNWYQQFPGTAPRLLIYSNDQRPSGIPDRFSGSKSGTSASLAISGLQSEDEADYYCSTWDDSLNGAVFGGGTQLTVLG
B6: mAb14257 (antibody, V domains shown)
VH: EVQLVESGGGLVQPGGSLRLSCAASGFTVSRSYMNWVRQAPGKGLEWVSVVFTGGTTKHTDSVKGRFTISRDNSMNTLYLQMNSLRPEDTAVYYCARVAIVETTGAFDIWGQGTMVTVSS
VL: QSVLTQPPSVSGAPGQRVTISCTGTSSNIGADFDVHWYQQFPGTAPKLLIYGHTNRPSGIPDRFSGSKSGTSASLAITGLQAEDEADYYCQSYDSSLSGSVVFGGGTKLTVLG
B7: mAb14294 (antibody, V domains shown)
VH: EVQLVESGGGLVQPGGSLRLSCAASGFTFSNHWMDWVRQAPGKGLVWVSRINSDGSSTDYADSVRGRFTMSRDNAKNTLYLQMSSLRAEDTAVYYCAREGMIFGAVIIPGWYFDLWGRGALVTVSS
VL: EIVLTQSPGTLSLSPGERATLSCRASQSVSSSQLAWYQQKPGQAPRLLIYGASSRATGIPDRFSGSGSGTDFTLTISRLEPEDFAVYYCQQYDSFGQGTKLEIKR
B8: mAb14289 (antibody, V domains shown)
VH: QVQLVQSGPEVKKPGASVKVSCKASGYTFTSYAISWVRQAPGQGLEWMGWISAYNGNTNYAQKLQGRVTMTTDTFTSTAYMELRSLRSDDTAVYYCAVPADHITFDYWGQGTLVTVSS
VL: EIVLTQSPGTLSLSPGERATLSCRASQSVSSYLAWYQQKPGQAPRLLIHGASSRATGIPDRFSGSGSGTDFTLTISRLEPEDFAVYYCQQYGSSFLTFGGGTKVEIKR
B9: mAb14315 (antibody, V domains shown)
VH: QVQLVQSGAEVKKPGSSVKVSCKASGDTFSTYAINWVRQAPGQGLEWMGRFIHIFGTANYAQKFQGRVTITADESTSTAYMELRSLRSEDTAVYYCARDGVDYGDYRPDYWGQGTLVTVSS
VL: EIVLTQSPGTLSLSPGERATLSCRASQSVSSNYLAWYQQKPGQAPRLLIYGASSRATGIPERFSGSGSGTDFTLTISRLEPEDFAVYYCQQYGSSLYTFGQGTKLEIKR
B10: mAb13458 (antibody, V domains shown)
VH: EVQLVESGGGLVQPGRSLRLSCAASGFTFDDYAMHWVRQAPGKGLEWVSGISWNSGSIGYADSVKGRFTISRDNAKNSLYLQMNSLRAEDTALYYCAKDIGITTPYWGQGTLVTVSS
VL: AIQMTQSPSSLSASVGDRVTITCRASQDIRNDLGWYQQKPGKAPKLLIYSASSLQTGVPSRFSGSGSGTDFTLTISSLHPEDFATYYCLQDYWYTWTFGQGTKVEIKR
B11: mAb13459 (antibody, V domains shown)
VH: B10 VH
VL: B10 VL with W93N, T95V
B12: mAb14247 (antibody, V domains shown)
VH: QITLKESGPTLVKPTQTLTLTCTFSGFSLSTSAVGVGWIRQPPGKALEWLALIYWDDDKRYSPSLKSRLTITKDTSKNQLVLTMTNVDPVDTATYYCAHHTIQLIFDYWGQGTLVTVSS
VL: QSALTQPASVSGSPGQSITISCTATSSDVGNYNYVSWYQQHPGKAPKLMIYEVSNRPSGVSNRFSGSKSGNTASLTISGLQAEDEADYYCSSYTSSSTPLVFGGGTKLTVLG
B13: mAb15151 (antibody, V domains shown)
VH: QVQLVESGGGVVQPGRSLRLSCAASGFVFNSYGMHWVRQAPGKGLEWVAVLWYEGSKNYYADSVKGRFTISRDNSKNTLYLQMNSLRAEDTAVYYCARHGSGSFFGYYLDYWGQGTLVTVSS
VL: DIQMTQSPSSLSASVGDRVTITCRASHNINDFLNWYQQKPGKAPRLLIYAASSLQSGVPSRFSGSGSGTDFTLTISSLQPEDFATYYCQESYTTPPTFGQGTKLEIKR
B14: mAb14258 (antibody, V domains shown)
VH: QLQLQESGPGLVKPSETLSLICTGSGDSISSSHYYWGWIRQPPGKGLEWIGSTYFSGSTYYNPSLKSRVSISVDTSKNQVSLKLISVTAADTAVYYCAREMGATLGDYWGPGTLVTVSS
VL: QSVLTQPPSASGTPGQRVTISCSGSSSNIGNNYVYWYQQFPGTTPRLLIYRNNERPSGVPDRFSGSKSGTSASLVISGLRSEDEADYYCAAWDDSLSAHYVFGTGTKVTVLG
B15: mAb15150 (antibody, V domains shown)
VH: EVQLVETGGGLIQPGGSLRLSCAAPGFIVSSNYMSWVRQAPGKGLEWVSLLYPGGSTYYADSVKGRFTISRDNSKNTLYLQMNSLRADDTAVYYCARVLPIVEDHFDYWGQGTLVTVSS
VL: DIQLTQSPSFLSASVGDRVTITCRASQGMSSYLAWYQKKPGKAPKLLIYGATILQSGVPSRFSGSGSGTEFTLTISSLQPEDFATYYCQQLNSDPLYMYTFGQGTKLEIKR
B16: mAb14284 (antibody, V domains shown)
VH: B2 VH
VL: B1 VL with A24G, V29L, T31V, Y32F, F38Y, H40Q, T96S, I98T
B17: mAb14283 (antibody, V domains shown)
VH: B4 VH
VL: B4 VL
B18: mAb14312 (antibody, V domains shown)
VH: B6 VH with N35T, V51I, T56R, K58D, T60A, D72H, M75K, P87T, E102G, T103A
VL: B6 VL with T25S, D32G, F33D, F41L, H53N, T54S, I60V
B19: mAb14260 (antibody, V domains shown)
VH: EVQLVESGGGLVQPGGSLRLSCAASGFTFSIYEMNWVRQAPGKGLEWVSYITSSGFTIYYADSVKGRFTISRDNAKNSLYLQMHSLRAEDTAVYYCATSSSSGYYFDYWGQGTLVTVSS
VL: not shown
B20: mAb14294 (antibody, V domains shown)
VH: B7 VH
VL: B7 VL
B21: mAb14258 (antibody, V domains shown)
VH: B14 VH
VL: B14 VL

target: SARS-COV-2 RBD extracellular domain expressed with a C-terminal myc-myc-hexahistidine tag (SARS-CoV-2); assay: SPR (Biacore), mAb captured by anti-human Fc, RBD-mmH in solution, 25 C

Binder	RBD monomer bound at 50 nM (RU)
B1	117 RU
B2	236 RU
B3	180 RU
B4	172 RU
B5	218 RU
B6	215 RU
B7	138 RU
B8	151 RU
B9	127 RU
B10	158 RU
B11	219 RU
B12	63.3 RU
B13	63.4 RU
B14	180 RU
B15	33.3 RU

target: SARS-COV-2 RBD extracellular domain expressed with a C-terminal myc-myc-hexahistidine tag (SARS-COV-2 RBD-mmH) (SARS-CoV-2); assay: SPR Biacore, mAb captured on anti-hFc, RBD-mmH analyte, 37 C

Binder	RBD monomer bound at 50 nM (RU)	Kd	koff	kon	t½
B16	345 RU	–	–	–	–
B17	217 RU	–	–	–	–
B18	221 RU	–	–	–	–
B19	220 RU	0.741 nM	0.00144 s⁻¹	1.95e+06 M⁻¹ s⁻¹	8 min
B20	186 RU	–	–	–	–
B21	216 RU	–	–	–	–

Reference: patent US20260069689A1, “ANTI-SARS-COV-2-SPIKE GLYCOPROTEIN ANTIBODIES AND ANTIGEN-BINDING FRAGMENTS” (Regeneron, published 2026)
